{"source": "the supplement of paper PMC9931576", "binders": {"B1": {"name": "BD56-1532 (protein)", "chain 1": "EVQLVQSGAEVKKPGESLKISCKASGYSFISHWIGWVRQMPGKGLEWMGIIYPGDSDTRYSPSFQGQVTISADKSITTAYLQWTRLKASDTAIYYCARLPTVAGWFHPWGQGTLVTVSS", "chain 2": "QSVLTQPPSASRTPGQRVTISCSGSSSNIGGNPVNWYQQLPGTAPKLLIQNNYQRPSGVPDRFSGSKSGTSASLAISGLQSEDEADYYCAAWDDSLNVVLFGGGTKLTVL"}, "B2": {"name": "BD56-1560 (protein)", "chain 1": "EVQLVQSGAEVKKPGESLKISCKASGYSFISHWIAWVRQMPGKGLEWMGVIYPGDSDTRYSPSFQGQVTISADKSITTAYLHWSRLKASDTAIYYCARLPTVASWFDLWGQGTLVIVPS", "chain 2": "QSVLTQPPSASGTPGQRVTISCSGRSSNIGSNPVSWYLQLPETAPKLLIYNNNARPSGVPDRFSGSKSGTSASLAISGLQSEDEADYYCAAWDDSLNVVLFGRGTKLTVL"}, "B3": {"name": "BD56-1545 (protein)", "chain 1": "QITLKESGPTLVKPTQTLTLTCTFSGFSLSTSGVGVGWIRQPPGEALEWLAIIYWDDDKRYSPSLKSRLTITRDTSKNQVVLTMTKMDPVDTATYYCAHSPTSMITFGGVSAEFHYWGQGTLVTVSS", "chain 2": "SYEVTQPPSVSVSPGQTASITCSGDKLGDKYVCWYQQKSGQSPVLVMHQDSKRPSGIPERFSGSSSGNTATLTISGTQAMDEADYYCQAWDYSTVVFGRGTRLTVL"}, "B4": {"name": "BD56-1559 (protein)", "chain 1": "QLQLQASGPGLVKPSETLSLTCTVSGGSISSSSYYWGWIRQPPGKGLEWIGSFYHSGSIYYNPSLQSRVTISADTSENQFSLKLSSVTAADTAIYYCARQRFGYCSGAACYGDWYFDLWGRGTLVTVSS", "chain 2": "DIQMTQSPSTLSASVGDRVTITCRASQIISSWLAWYQQKPGKAPNLLIYKASSLESGVSSRFSGSGSGTEFTLTISSLQPDDFATYYCQQYNSYPWTFGQGTKVEIK"}, "B5": {"name": "BD56-1533 (protein)", "chain 1": "EVQLVQSGAEVKKPGESLKISCKGLGYTFTRYWIAWVRQMPGRGLEWMGIIYPGDSDSKYSPSFQGQVTFSVDKSISAAYLQWSSLKASDTAIYYCARSGVGEYGDYDYWGQGTLVTVSS", "chain 2": "EIVLTQSPGTLSLSPGERATLSCRASQSVSSSFFAWYQHKPGQAPRLLIYDASNRATGIPDRFTGSGSGTDFTLTITRLEPEDFAVYYCHQYGSSPPTFGQGTKVEIK"}, "B6": {"name": "BD56-1567 (protein)", "chain 1": "EVQLVESGGDLAQPGGSLRLSCEASGRTFSSYEMNWVRQAPGKGLEWVSHISSSGTTISYADSVKGRFTVSRDNTKNSLFLQMNSLRVEDTAVYYCASGLRYSSSWVVADYYYYAMDVWGQGTTVTVSS", "chain 2": "DIQMTQSPSSLSASVGDRVTITCRASQTISNYLNWYQQKPGKAPKLLIYAASSLHSGVPSRFSGSRSGTDFTLTISSLQPEDFATYYCQQSYSTPYTFGQGTKLEIK"}, "B7": {"name": "BD56-1566 (protein)", "chain 1": "QVQLVQSGAEVKKPGASVTVSCQASGYTFTSYYIHWVRQAPGQGLEWMGIINPDGGSTTYAQKFQGRVTLTSDTSTTTVYMELSSLRSEDTAMYFCARGSGIIPVLRRNFDCWGQGTLVTVSS", "chain 2": "DIVMTQSPDSLAVSLGERATINCKSSQSVSYSSNNKNYLAWYQQKPGQPPKLLIYWASTRESGVPDRFSGSGSGTDFTLTISSLQAEDVAVYYCQQYYNTPFTFGPGTKVDFK"}, "B8": {"name": "BD56-1548 (protein)", "chain 1": "QLQLQESGPGLVKPSETLSLTCSVSGGPISRTSYYWVWIRQPPGKGLEWIGSIYYSGSTYYNPSLKSRVTISVDTSRNQFSLKLSSVTAADSAVYYCARPGGTWIQPWSDASDIWGQGTMVTVSS", "chain 2": "EIVLTQSPATLSLSPGERATLSCRASQSISTYLAWYQQKPGQAPRLLIYDASNRATGIPARFSGSGSGTDFTLTISSLEPEDFAVYYCQQRDNWPLLTFGGGTKVEIK"}, "B9": {"name": "COV2-2693 (protein)", "chain 1": "QVQLVQSGAEVKKPGASVKVSCQASGYTFTSYDINWVRQATGQGLEWMGWMKSNSGNTGYAQKFQGRVTMTRNTSISTAYMELTSLRSEDTAVYYCARMRSGWPTHGRPDDLWGRGTLVTVSS", "chain 2": "QSVLTQPPSASGTPGQRVTISCSGSNSNIGSYTVNWYQQLPGTAPKLLIYDNNQRTSGVPDRLSGSKSGTSASLAISGLQSEDEANYYCAVWDDSLNGLVFGGGTKLTVL"}, "B10": {"name": "BD56-1553 (protein)", "chain 1": "QVQLVESGGGVVQPGRSLRLSCAVSGFTFSHYVMHWVRQAPGKGLEWVAVILYDGSNRYYADSVKGRFTISRDNSKNTLYLQMNSLRVEDTAVYYCAKAQGPYCGGGTCYSSPFDFWGQGTLVTVSS", "chain 2": "DIQMTQSPSSLSASVGDRVTITCQASQDISNYLNWYQQKPGKAPKLLIYGASNLETGVPSRFSGSGSGTDFAFSISSLQPEDIATYYCQKYDNLPPLFGPGTKVDIK"}, "B11": {"name": "BD56-1546 (protein)", "chain 1": "QVQLVESGGGVVQPGRSLRLSCAASAFTFRSFDMHWVRQAPGKGLEWVAAIWYDGSNKYYADSVKGRFTISRDNSKNTLYLQMNSLRVEDTAVYYCATAVVAAGLAEYFQHWGRGTLVTVSS", "chain 2": "DIQMTQSPSSLSASVGDRVIITCRASQGISNFLAWFQQKPGKAPKSLIYAASSLHSGVPSKFSGSESGTDFTLTISSLQPEDFATYYCQQYHSFPYTFGQGTKLEIK"}, "B12": {"name": "BD56-1535 (protein)", "chain 1": "QVQLVQSGAEVKKPGSSVKVSCKASGGTFSSQAISWVRQAPGQGLEWMGGIIPIFNRTNYAQKFQGRVTITADESTSTAYMQLNSLRSEDTAVYYCATFGTWLDGGRDYWGQGTLVIVSS", "chain 2": "EIVLTQSPGTLSLSPGKQATLSCRASQSVTSDYLAWYQQKPGQAPRLLIYAASSRASGIPDRFSGSGSGTDFTLTISRLEPEDFAVYYCQQYGRSRTFGQGTKVEIK"}}, "note": "Human monoclonal antibodies against the spike receptor-binding domain (heavy:light variable regions). IC50 against pseudoviruses bearing the spike of naturally observed variants; lower = stronger; >10 µg/ml means not reached at the top dose. No active / inactive call. The stated detection limit is 0.0005 µg/ml; values near or below 0.001 µg/ml lie at the floor of the assay."}
{"molecular_target": "SARS-CoV-2 Omicron BA.1 spike pseudovirus", "assay": "pseudovirus neutralization IC50; higher = weaker neutralization", "procedure": "(§1)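 Single-round VSV luciferase pseudovirus mixed with antibody dilutions for 1 h and put on Huh-7 cells for about a day; IC50 from the dose curve.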", "units": {"pseudovirus neutralization IC50": "µg/mL"}}
{"binder": "B1", "pseudovirus neutralization IC50": 1.02}
{"binder": "B2", "pseudovirus neutralization IC50": 1.48}
{"binder": "B3", "pseudovirus neutralization IC50": 3.51}
{"binder": "B4", "pseudovirus neutralization IC50": "> 10"}
{"binder": "B5", "pseudovirus neutralization IC50": 0.513}
{"binder": "B6", "pseudovirus neutralization IC50": "> 10"}
{"binder": "B7", "pseudovirus neutralization IC50": "> 10"}
{"binder": "B8", "pseudovirus neutralization IC50": "> 10"}
{"binder": "B9", "pseudovirus neutralization IC50": "> 10"}
{"binder": "B10", "pseudovirus neutralization IC50": "> 10"}
{"binder": "B11", "pseudovirus neutralization IC50": "> 10"}
{"binder": "B12", "pseudovirus neutralization IC50": "> 10"}
{"molecular_target": "SARS-CoV-2 Omicron BA.2 spike pseudovirus", "assay": "pseudovirus neutralization IC50; higher = weaker neutralization", "procedure": "as §1", "units": {"pseudovirus neutralization IC50": "µg/mL"}}
{"binder": "B1", "pseudovirus neutralization IC50": 1.31}
{"binder": "B2", "pseudovirus neutralization IC50": 0.608}
{"binder": "B3", "pseudovirus neutralization IC50": 2.86}
{"binder": "B4", "pseudovirus neutralization IC50": "> 10"}
{"binder": "B5", "pseudovirus neutralization IC50": 0.357}
{"binder": "B6", "pseudovirus neutralization IC50": "> 10"}
{"binder": "B7", "pseudovirus neutralization IC50": "> 10"}
{"binder": "B8", "pseudovirus neutralization IC50": "> 10"}
{"binder": "B9", "pseudovirus neutralization IC50": "> 10"}
{"binder": "B10", "pseudovirus neutralization IC50": "> 10"}
{"binder": "B11", "pseudovirus neutralization IC50": "> 10"}
{"binder": "B12", "pseudovirus neutralization IC50": "> 10"}
{"molecular_target": "SARS-CoV-2 Omicron BA.2.75 spike pseudovirus", "assay": "pseudovirus neutralization IC50; higher = weaker neutralization", "procedure": "as §1", "units": {"pseudovirus neutralization IC50": "µg/mL"}}
{"binder": "B1", "pseudovirus neutralization IC50": 1.18}
{"binder": "B2", "pseudovirus neutralization IC50": 0.858}
{"binder": "B3", "pseudovirus neutralization IC50": 1.98}
{"binder": "B4", "pseudovirus neutralization IC50": "> 10"}
{"binder": "B5", "pseudovirus neutralization IC50": 0.663}
{"binder": "B6", "pseudovirus neutralization IC50": "> 10"}
{"binder": "B7", "pseudovirus neutralization IC50": "> 10"}
{"binder": "B8", "pseudovirus neutralization IC50": "> 10"}
{"binder": "B9", "pseudovirus neutralization IC50": "> 10"}
{"binder": "B10", "pseudovirus neutralization IC50": "> 10"}
{"binder": "B11", "pseudovirus neutralization IC50": "> 10"}
{"binder": "B12", "pseudovirus neutralization IC50": "> 10"}
{"molecular_target": "SARS-CoV-2 Omicron BA.5 spike pseudovirus", "assay": "pseudovirus neutralization IC50; higher = weaker neutralization", "procedure": "as §1", "units": {"pseudovirus neutralization IC50": "µg/mL"}}
{"binder": "B1", "pseudovirus neutralization IC50": 0.984}
{"binder": "B2", "pseudovirus neutralization IC50": 0.728}
{"binder": "B3", "pseudovirus neutralization IC50": 1.96}
{"binder": "B4", "pseudovirus neutralization IC50": "> 10"}
{"binder": "B5", "pseudovirus neutralization IC50": 0.562}
{"binder": "B6", "pseudovirus neutralization IC50": "> 10"}
{"binder": "B7", "pseudovirus neutralization IC50": "> 10"}
{"binder": "B8", "pseudovirus neutralization IC50": "> 10"}
{"binder": "B9", "pseudovirus neutralization IC50": "> 10"}
{"binder": "B10", "pseudovirus neutralization IC50": "> 10"}
{"binder": "B11", "pseudovirus neutralization IC50": "> 10"}
{"binder": "B12", "pseudovirus neutralization IC50": "> 10"}
{"molecular_target": "SARS-CoV-2 Omicron BQ.1.1 spike pseudovirus", "assay": "pseudovirus neutralization IC50; higher = weaker neutralization", "procedure": "as §1", "units": {"pseudovirus neutralization IC50": "µg/mL"}}
{"binder": "B1", "pseudovirus neutralization IC50": 1.27}
{"binder": "B2", "pseudovirus neutralization IC50": 0.757}
{"binder": "B3", "pseudovirus neutralization IC50": 3.26}
{"binder": "B4", "pseudovirus neutralization IC50": "> 10"}
{"binder": "B5", "pseudovirus neutralization IC50": 0.58}
{"binder": "B6", "pseudovirus neutralization IC50": "> 10"}
{"binder": "B7", "pseudovirus neutralization IC50": "> 10"}
{"binder": "B8", "pseudovirus neutralization IC50": "> 10"}
{"binder": "B9", "pseudovirus neutralization IC50": "> 10"}
{"binder": "B10", "pseudovirus neutralization IC50": "> 10"}
{"binder": "B11", "pseudovirus neutralization IC50": "> 10"}
{"binder": "B12", "pseudovirus neutralization IC50": "> 10"}
{"molecular_target": "SARS-CoV-2 Omicron XBB spike pseudovirus", "assay": "pseudovirus neutralization IC50; higher = weaker neutralization", "procedure": "as §1", "units": {"pseudovirus neutralization IC50": "µg/mL"}}
{"binder": "B1", "pseudovirus neutralization IC50": 2.37}
{"binder": "B2", "pseudovirus neutralization IC50": 1.65}
{"binder": "B3", "pseudovirus neutralization IC50": 3.76}
{"binder": "B4", "pseudovirus neutralization IC50": "> 10"}
{"binder": "B5", "pseudovirus neutralization IC50": 0.585}
{"binder": "B6", "pseudovirus neutralization IC50": "> 10"}
{"binder": "B7", "pseudovirus neutralization IC50": "> 10"}
{"binder": "B8", "pseudovirus neutralization IC50": "> 10"}
{"binder": "B9", "pseudovirus neutralization IC50": "> 10"}
{"binder": "B10", "pseudovirus neutralization IC50": "> 10"}
{"binder": "B11", "pseudovirus neutralization IC50": "> 10"}
{"binder": "B12", "pseudovirus neutralization IC50": "> 10"}
{"molecular_target": "SARS-CoV-2 early D614G spike pseudovirus", "assay": "pseudovirus neutralization IC50; higher = weaker neutralization", "procedure": "as §1", "units": {"pseudovirus neutralization IC50": "µg/mL"}}
{"binder": "B1", "pseudovirus neutralization IC50": 1.23}
{"binder": "B2", "pseudovirus neutralization IC50": 1.06}
{"binder": "B3", "pseudovirus neutralization IC50": 2.75}
{"binder": "B4", "pseudovirus neutralization IC50": "> 10"}
{"binder": "B5", "pseudovirus neutralization IC50": "> 10"}
{"binder": "B6", "pseudovirus neutralization IC50": "> 10"}
{"binder": "B7", "pseudovirus neutralization IC50": "> 10"}
{"binder": "B8", "pseudovirus neutralization IC50": "> 10"}
{"binder": "B9", "pseudovirus neutralization IC50": 4.28}
{"binder": "B10", "pseudovirus neutralization IC50": "> 10"}
{"binder": "B11", "pseudovirus neutralization IC50": "> 10"}
{"binder": "B12", "pseudovirus neutralization IC50": "> 10"}
